This passage reports SI results from US10786484B2, “Mono- or di-substituted indole derivatives as dengue viral replication inhibitors” (Janssen Pharmaceuticals, Inc., priority 2015, dated 2020).

Each structure is given as a SMILES string.

The subject of this data set is DENV-2 16681 strain labeled with eGFP. The data set is described as follows: DENV-2 antiviral assay (eGFP fluorescence read-out in Vero cells). The note with it: SI=CC50/EC50, DENV-2 antiviral assay. It counts as cell-based, Dengue virus. On the procedure: The antiviral activity of all the compounds of the invention was tested against the DENV-2 16681 strain which was labeled with enhanced green fluorescent protein (eGPF). The culture medium consists of minimal essential medium supplemented with 2% of heat-inactivated fetal calf serum, 0.04% gentamycin (50 mg/mL) and 2 mM of L-glutamine. Vero cells, obtained from ECACC, were suspended in culture medium and 25 μL was added to 384-well plates (2500 cells/well), which already contain the antiviral compounds. Typically, these plates contain a 5-fold serial dilution of 9 dilution steps of the test compound at 200 times the final concentration in 100% DMSO (200 nL). […] Finally, each plate contains wells which are assigned as virus controls (containing cells and virus in the absence of compound), cell controls (containing cells in the absence of virus and compound) and medium controls (containing medium in the absence of cells, virus and compounds). To the wells assigned as medium control, 25 μL of culture medium was added instead of Vero cells. Once the cells were added to the plates, the plates were incubated for 30 minutes at room temperature to allow the cells to distribute evenly within the wells. Next, the plates were incubated in a fully humidified incubator (37° C., 5% CO2) until the next day. Then, DENV-2 strain 16681, labeled with eGFP, was added at a multiplicity of infection (MOI) of 0.5. Therefore, 15 μL of virus suspension was added to all the wells containing test compound and to the wells assigned as virus control. In parallel, 15 μL of culture medium was added to the medium and cell controls. Next, the plates were incubated for 3 days in a fully humidified incubator (37° C., 5% CO2). At the day of the read out, the eGFP fluorescence was measured using an automated fluorescence microscope at 488 nm (blue laser). Using an in-house LIMS system, inhibition dose response curves for each compound were calculated and the half maximal effective concentration (EC50) was determined. Therefore, the percent inhibition (I) for every test concentration is calculated using the following formula: I=100*([…])/(SVC−SCC); ST, SCC and SVC are the amount of eGFP signal in the test compound, cell control and virus control wells, respectively. The EC50 represents the concentration of a compound at which the virus replication is inhibited with 50%, as measured by a 50% reduction of the eGFP fluorescent intensity compared to the virus control. The EC50 is calculated using linear interpolation (Table 1).
As to `COc1cc(NC(C(=O)c2c[nH]c3cc(Cl)ccc23)c2ccc(F)cc2OCCO)cc(S(C)(=O)=O)c1` (single isomer, unassigned) [Compound 2B, 1-(6-chloro-1H-indol-3-yl)-2-(4-fluoro-2-(2-hydroxyethoxy)phenyl)-2-((3-methoxy-5-(methylsulfonyl)phenyl)amino)-ethanone], the SI stood at 589.
The result for `COc1cc(NC(C(=O)c2c[nH]c3c(C)c(F)ccc23)c2ccc(F)cc2OCCO)cc(S(C)(=O)=O)c1` (single isomer, unassigned) [Compound 3B, 2-(4-fluoro-2-(2-hydroxyethoxy)phenyl)-1-(6-fluoro-7-methyl-1H-indol-3-yl)-2-((3-methoxy-5-(methylsulfonyl)phenyl)amino)ethanone] reads 366; that for `COc1cc(NC(C(=O)c2c[nH]c3c(C)c(Cl)ccc23)c2ccc(F)cc2OCCO)cc(S(C)(=O)=O)c1` (single isomer, unassigned) [Compound 4A, 1-(6-chloro-7-methyl-1H-indol-3-yl)-2-(4-fluoro-2-(2-hydroxyethoxy)phenyl)-2-((3-methoxy-5-(methylsulfonyl)phenyl)amino)ethanone], 1020.
The result for `COc1cc(NC(C(=O)c2c[nH]c3cc(F)c(F)cc23)c2ccc(F)cc2OCCO)cc(S(C)(=O)=O)c1` (single isomer, unassigned) [Compound 5B, 1-(5,6-difluoro-1H-indol-3-yl)-2-(4-fluoro-2-(2-hydroxyethoxy)phenyl)-2-((3-methoxy-5-(methylsulfonyl)phenyl)-amino)ethanone] reads 670; that for `COc1cc(NC(C(=O)c2c[nH]c3cc(OC)c(C)cc23)c2ccc(F)cc2OCCO)cc(S(C)(=O)=O)c1` (single isomer, unassigned) [Compound 6B, 2-(4-fluoro-2-(2-hydroxyethoxy)phenyl)-2-((3-methoxy-5-(methylsulfonyl)phenyl)amino)-1-(6-methoxy-5-methyl-1H-indol-3-yl)ethanone], 80.
As for `COc1cc(NC(C(=O)c2c[nH]c3cc(F)c(C)cc23)c2ccc(F)cc2OCCO)cc(S(C)(=O)=O)c1` (single isomer, unassigned) [Compound 7B, 2-(4-fluoro-2-(2-hydroxyethoxy)phenyl)-1-(6-fluoro-5-methyl-1H-indol-3-yl)-2-((3-methoxy-5-(methylsulfonyl)phenyl)amino)ethanone], the SI was found to be 224.
As for `COc1cc(NC(C(=O)c2c[nH]c3c(F)cc(C)cc23)c2ccc(F)cc2OCCO)cc(S(C)(=O)=O)c1` (single isomer, unassigned) [Compound 8B, 2-(4-fluoro-2-(2-hydroxyethoxy)phenyl)-1-(7-fluoro-5-methyl-1H-indol-3-yl)-2-((3-methoxy-5-(methylsulfonyl)phenyl)amino)ethanone], the SI came out at 170.
The result for `COc1cc(NC(C(=O)c2c[nH]c3c(C)cc(Cl)cc23)c2ccc(F)cc2OCCO)cc(S(C)(=O)=O)c1` (single isomer, unassigned) [Compound 9B, 1-(5-chloro-7-methyl-1H-indol-3-yl)-2-(4-fluoro-2-(2-hydroxyethoxy)phenyl)-2-((3-methoxy-5-(methylsulfonyl)phenyl)amino)ethanone] reads 253; that for `COc1cc(NC(C(=O)c2c[nH]c3ccc(OC(F)(F)F)cc23)c2ccc(F)cc2OCCO)cc(S(C)(=O)=O)c1` (single isomer, unassigned) [Compound 10A, 2-(4-fluoro-2-(2-hydroxyethoxy)phenyl)-2-((3-methoxy-5-(methylsulfonyl)phenyl)amino)-1-(5-(trifluoromethoxy)-1H-indol-3-yl)ethanone], 597; that for `COc1cc(NC(C(=O)c2c[nH]c3cc(OC)c(OC(F)(F)F)cc23)c2ccc(F)cc2OCCO)cc(S(C)(=O)=O)c1` (single isomer, unassigned) [Compound 11A, 2-(4-fluoro-2-(2-hydroxyethoxy)phenyl)-2-((3-methoxy-5-(methyl-sulfonyl)phenyl)amino)-1-(6-methoxy-5-(trifluoromethoxy)-1H-indol-3-yl)ethanone], 613.
In the case of `COc1cc(NC(C(=O)c2c[nH]c3c(C)cc(OC(F)(F)F)cc23)c2ccc(F)cc2OCCO)cc(S(C)(=O)=O)c1` (single isomer, unassigned) [Compound 12B, 2-(4-fluoro-2-(2-hydroxyethoxy)phenyl)-2-((3-methoxy-5-(methylsulfonyl)phenyl)amino)-1-(7-methyl-5-(trifluoromethoxy)-1H-indol-3-yl)ethanone], the SI is given as 8540.
